Reference: PMC6753678, “Fueling Open Innovation for Malaria Transmission-Blocking Drugs: Hundreds of Molecules Targeting Early Parasite Mosquito Stages” (Frontiers in Microbiology, 2019)

What was measured:
[1] = test system: P. falciparum late stage (stages IV-V) gametocytes; test: P. falciparum late stage gametocyte ATP depletion assay (Pf GC-ATP)
[2] = test system: P. falciparum female gametocytes; test: P. falciparum female gametogenesis assay (Pf FGAA); details: unified cytotox / Pf FGAA IC50; red: <10-fold selectivity; green: >10-fold
[3] = unified cytotox / Pf GC-ATP IC50, red: <10-fold selectivity, green: >10-fold
[4] = unified cytotox / Pf GC-ATP IC50, <10-fold selectivity red, >10-fold green
[5] = unified cytotox / IC50, <10-fold red, >10-fold green

Row | SMILES | Assay tox ratio Pf GC-ATP [1, 3] | also measured
1 | CN(C)CCCn1c(N)c(-c2nc3ccccc3[nH]2)c2nc(C#N)c(C#N)nc21 [TCMDC-123729] | 34.65 | –
2 | c1ccc(CSC2=NNC(c3ccccn3)S2)cc1 (stereo not drawn) [TCMDC-123769] | – | Assay tox ratio Pf GC-ATP [1, 4]: 3.13
3 | Cn1nc(C(F)(F)F)c(-c2ccc(Br)cc2)c1NC(=O)Cc1ccccc1F [TCMDC-123792] | – | Assay tox ratio Pf GC-ATP [1, 5]: 55.97
4 | Cl.N=c1n(Cc2ccc(Cl)cc2)c2ccccc2n1CC(O)c1ccc(Cl)c(Cl)c1 (stereo not drawn) [TCMDC-123813] | – | Assay tox ratio Pf GC-ATP [1, 4]: 18.22
5 | O=C(Nc1nc(-c2ccccn2)cc2ccccc12)c1cccc(Cl)c1 [TCMDC-123886] | – | Assay tox ratio Pf GC-ATP [1, 4]: 50.34
6 | COc1ccc(C[C@H](N)C(=O)N[C@H]2[C@@H](O)[C@H](n3cnc4c(N(C)C)ncnc43)O[C@@H]2CO)cc1.Cl [TCMDC-123927] | – | Assay tox ratio Pf GC-ATP [1, 4]: 4.16
7 | Cc1ccc(C)c(NC(=O)CC2C(=O)N(c3ccccc3)C(=S)N2Cc2ccco2)c1 (stereo not drawn) [TCMDC-124000] | – | Assay tox ratio Pf GC-ATP [1, 4]: 19.23
8 | Cl.N=c1n(CCN2CCCCC2)c2ccccc2n1CC(O)c1ccc(Cl)c(Cl)c1 (stereo not drawn) [TCMDC-124064] | – | Assay tox ratio Pf GC-ATP [1, 4]: 1.59
9 | CCCCCCCn1c(=N)n(CC(O)c2ccc(Cl)c(Cl)c2)c2ccccc21.Cl (stereo not drawn) [TCMDC-124065] | – | Assay tox ratio Pf GC-ATP [1, 4]: 2.97
10 | CCCCOc1ccc(C(=O)C(CCC(CNC(C)(C)C)C(=O)c2ccc(OCCCC)cc2)CNC(C)(C)C)cc1.Cl (stereo not drawn) [TCMDC-124120] | – | Assay tox ratio Pf GC-ATP [1, 4]: 10.33
11 | CCCCCOc1ccc(C(O)C(CCC(CN2CCCCCC2)C(O)c2ccc(OCCCCC)cc2)CN2CCCCCC2)cc1.Cl (stereo not drawn) [TCMDC-124174] | – | Assay tox ratio Pf GC-ATP [1, 4]: 5.67
12 | Oc1c(C(Nc2nc3ccccc3s2)c2ccc(OC(F)F)cc2)ccc2cccnc12 (stereo not drawn) [TCMDC-124379] | – | Assay tox ratio Pf GC-ATP [1, 4]: 54.77
13 | Cc1cc(Nc2ccncc2)n2nc(C)c(-c3ccc(Cl)cc3)c2n1 [TCMDC-124478] | – | Assay tox ratio Pf GC-ATP [1, 4]: 54.79
14 | O=C(O)C(=O)O.Oc1c(CN2CCC(Cc3ccccc3)CC2)cc(Cl)c2cccnc12 [TCMDC-124594] | – | Assay tox ratio Pf GC-ATP [1, 4]: 16.00
15 | Cc1ccc(-n2nc(-c3ccccc3)c3cc(C(=O)NCCN)sc32)cc1 [TCMDC-124776] | – | Assay tox ratio Pf GC-ATP [1, 4]: 7.05
16 | Cc1ccc(C)c(CC(=O)N2CCC(n3c(C)nc4ccc(F)cc43)CC2)c1 [TCMDC-124790] | – | Assay tox ratio Pf GC-ATP [1, 5]: 62.32
17 | COc1cccc(CC(=O)N2CCC(n3c(C)nc4ccc(C)cc43)CC2)c1 [TCMDC-124791] | – | Assay tox ratio Pf GC-ATP [1, 5]: 212.77
18 | COc1ccccc1-c1cccc(-c2cccc(NC(=O)c3ccc([N+](=O)[O-])o3)c2)n1 [TCMDC-124800] | – | Assay tox ratio Pf GC-ATP [1, 4]: 6.90
19 | O=C(Nc1cccc(-c2cccc(-c3ccc(F)cc3)n2)c1)c1ccc([N+](=O)[O-])o1 [TCMDC-124807] | 4.55 | –
20 | CCc1nn2c(Nc3ccncc3)cc(C)nc2c1-c1ccccc1 [TCMDC-124917] | 13.13 | –
21 | Cc1cc(Nc2ccncc2)n2nc(C)c(-c3ccccc3Cl)c2n1 [TCMDC-124918] | 12.86 | –
22 | Cc1nn(CC(C)C)c2sc(C(=O)N3CCN(S(=O)(=O)c4ccc(C#N)cc4)CC3)cc12 [TCMDC-125045] | 11.94 | –
23 | Cc1[nH]c2ccccc2c1C(=O)C(C)Sc1n[nH]c(-c2ccccc2Br)n1 (stereo not drawn) [TCMDC-125114] | – | Assay tox ratio Pf GC-ATP [1, 5]: 111.43

Row | SMILES | Assay tox ratio Pf GC-ATP [1, 3] | also measured
24 | COc1cccc(NC(=O)[C@H](C(C)C)n2c(=O)[nH]c3ccccc3c2=O)c1 [TCMDC-125133] | – | Assay tox ratio Pf GC-ATP [1, 5]: 186.05
25 | O=C(Nc1ccc2c(c1)CCCN2S(=O)(=O)c1cccs1)c1cc([N+](=O)[O-])ccc1Cl [TCMDC-125153] | 9.39 | –
26 | CCOc1ccc(-c2nonc2NC(=O)c2cccc(Cl)c2)cc1OCC [TCMDC-125200] | – | Assay tox ratio Pf GC-ATP [1, 5]: 23.21
27 | COc1ccc(NC(=O)C2c3ccccc3C(=O)N(CC(C)C)C2c2cccs2)cc1OC (stereo not drawn) [TCMDC-125289] | 58.59 | –
28 | CCN(CC)CCCOC(=O)c1ccc2c(c1)-c1ccc(C(=O)OCCCN(CC)CC)c3cccc-2c13.Cl [TCMDC-125491] | 139.53 | –
29 | COc1ccc(C[C@H]2NC[C@H](O)[C@H]2OC(C)=O)cc1 [TCMDC-125504] | – | Assay tox ratio Pf GC-ATP [1, 5]: 7.16
30 | CC(C)c1ccc(NC(=S)NN=Cc2ccccn2)cc1 [TCMDC-125520] | 1306.12 | –
31 | COc1cccc(C(=O)NC(C=Cc2ccccc2)c2cc(Cl)c3cccnc3c2O)c1 (stereo not drawn) [TCMDC-125550] | 42.74 | –
32 | Cc1cc(NCCCCCCNc2cc(C)nc3c(C)cccc23)c2cccc(C)c2n1.Cl [TCMDC-125702] | 7.54 | –
33 | O=[N+]([O-])c1ccc(C=NNc2nc(Nc3ccccc3)nc(Nc3ccccc3)n2)o1 [TCMDC-125802] | 11.35 | –
34 | Cc1cccnc1Nc1nc(-c2ccccn2)cs1 [TCMDC-125846] | 30.20 | –
35 | COc1cccc(CCNCCCCCCNCCc2ccc(Cl)cc2)c1.Cl [TCMDC-131284] | 11.51 | –
36 | CCNC1=NC2=C(CC(C(C)(C)C)CC2)C2(CCC(C(C)(C)C)CC2)S1.Cl (stereo not drawn) [TCMDC-131288] | 4.77 | –
37 | CCN(CC)/C(=N\CCCCCC/N=C(\NC(=N)c1ccc(Cl)cc1)N(CC)CC)NC(=N)c1ccc(Cl)cc1 [TCMDC-131806] | 51.90 | –
38 | CCN(CC)/C(=N\C(=N)NCCCCCCNC(=N)/N=C(\Nc1ccc(Cl)cc1)N(CC)CC)Nc1ccc(Cl)cc1 [TCMDC-131807] | 68.49 | –
39 | CCN(CC)/C(=N/C(=N)Nc1ccc(Cl)c(Cl)c1)NCCCCCCN/C(=N\C(=N)Nc1ccc(Cl)c(Cl)c1)N(CC)CC [TCMDC-131808] | 7.28 | –
40 | CCN(CC)/C(=N/C(=N)Nc1ccc(Cl)cc1)NCCCCCCCCN/C(=N\C(=N)Nc1ccc(Cl)cc1)N(CC)CC [TCMDC-131812] | 24.27 | –
41 | CCN(CC)/C(=N/C(=N)NCc1ccc(Cl)cc1)NCCCCCCN/C(=N\C(=N)NCc1ccc(Cl)cc1)N(CC)CC [TCMDC-131817] | 31.65 | –
42 | SC(=Nc1ccc2c(c1)OCCO2)NN=Cc1ccccn1 [TCMDC-132009] | 3.95 | –
43 | COc1ccc(CCNc2nc(NCc3ccccc3)c3cc(OC)c(OC)cc3n2)cc1OC [TCMDC-132017] | 0.82 | –
44 | Nc1c2ccccc2nc2ccc(-c3ccccc3)cc12 [TCMDC-132030] | 6.80 | –
45 | CCc1c(CCNCCCCCCNCCc2ccc(Br)cc2)ccc(OC)c1OC.Cl [TCMDC-132045] | 14.88 | –
46 | CCc1c(CCNCCCCCCNCCc2ccc(OC)c(OC)c2C)ccc(OC)c1OC.Cl [TCMDC-132051] | 10.06 | –

Row | SMILES | Assay tox ratio Pf GC-ATP [1, 3] | also measured
47 | CCc1c(CCNCCc2cccc(CCNCCc3ccc(OC)c(OC)c3CC)c2)ccc(OC)c1OC.Cl [TCMDC-132056] | 7.47 | –
48 | CCc1c(CCNCCCC(C)CCNCCc2ccc(OC)c(OC)c2CC)ccc(OC)c1OC.Cl (stereo not drawn) [TCMDC-132065] | 13.24 | –
49 | COc1cc2c(c(Cl)c1OC)CCN(C(=O)C(F)(F)F)CC2c1ccccc1 (stereo not drawn) [TCMDC-132071] | 12.82 | –
50 | COc1cccc(CCc2c(CCNCCCCCCNCCc3ccccc3)ccc(OC)c2OC)c1.Cl [TCMDC-132105] | 43.58 | –
51 | Cc1cc(-c2cccc(CNC3CCCC3)c2)ccc1S(=O)(=O)NCCN1CCCC1.O=C(O)C(F)(F)F [TCMDC-132279] | 6.06 | –
52 | O=C(O)C(F)(F)F.O=S(=O)(NCCN1CCCC1)c1cccc(-c2ccc(CNCc3ccc(F)cc3)cc2)c1 [TCMDC-132289] | 2.75 | –
53 | COc1ccc(CNCc2ccc(F)cc2)cc1-c1ccc(S(=O)(=O)NCCN2CCCC2)cc1.O=C(O)C(F)(F)F [TCMDC-132294] | 5.36 | –
54 | COc1ccc(CNCc2ccc(F)cc2)cc1-c1ccc(OC)c(S(=O)(=O)NCCN2CCCC2)c1.O=C(O)C(F)(F)F [TCMDC-132295] | 15.91 | –
55 | COc1ccc(CNCCc2cccs2)cc1-c1cccc(S(=O)(=O)NCCN2CCCC2)c1.O=C(O)C(F)(F)F [TCMDC-132479] | 6.81 | –
56 | O=C(Nc1ccc(N2CCNCC2)cc1)c1ccn2ncc(-c3cccc(Cl)c3)c2n1 [TCMDC-132663] | 6.35 | –
57 | NCc1ccc(CNCc2cccc(-c3ccc(-c4nc5ccccc5[nH]4)cc3)c2)cc1.O=C(O)C(F)(F)F [TCMDC-132815] | 45.14 | –
58 | O=C(O)C(F)(F)F.c1cc(CNCCN2CCNCC2)cc(-c2cccc(-c3nc4ccccc4[nH]3)c2)c1 [TCMDC-132859] | 27.18 | –
59 | Fc1ccc2[nH]c(-c3cccc(-c4cccc(CNCCN5CCNCC5)c4)c3)nc2c1.O=C(O)C(F)(F)F [TCMDC-132860] | 26.65 | –
60 | Fc1ccc2[nH]c(-c3cccc(-c4ccc(CNCCN5CCNCC5)cc4)c3)nc2c1.O=C(O)C(F)(F)F [TCMDC-132863] | 16.62 | –
61 | Cc1cccc2nc(-c3ccc(-c4cccc(CNCCN5CCNCC5)c4)cc3)[nH]c12 [TCMDC-132867] | 15.95 | –
62 | Fc1ccc2[nH]c(-c3ccc(-c4ccc(CNCCN5CCNCC5)cc4)s3)nc2c1.O=C(O)C(F)(F)F [TCMDC-132869] | 47.17 | –
63 | Cc1cccc2nc(-c3cccc(-c4cccc(CNCCN5CCNCC5)c4)c3)[nH]c12.O=C(O)C(F)(F)F [TCMDC-132873] | 15.62 | –
64 | CN1CCN(c2nsc3ccc(-c4ccc(NC(=O)Nc5cc(C(F)(F)F)ccc5F)cc4)cc23)CC1.O=C(O)C(F)(F)F [TCMDC-133435] | 0.85 | –
65 | O=C(Nc1ccc(Cl)c(Cl)c1)Nc1ccccc1N1CCNCC1.O=C(O)C(F)(F)F [TCMDC-133727] | 1.51 | –
66 | NC1CCN(Cc2ccc(-c3ccc(-c4nc5cc(F)ccc5[nH]4)cc3)cc2)C1.O=C(O)C(F)(F)F (stereo not drawn) [TCMDC-133872] | 8.77 | –
67 | Cc1c(N=O)cc(C(C)(C)C)c(O)c1C(=O)Nc1ccc([N+](=O)[O-])cc1Cl [TCMDC-142233] | – | Assay tox ratio Pf FGAA [2]: 1.51
68 | CN(C)CCN1CCN(CCCN2c3ccccc3Sc3ccc(C(F)(F)F)cc32)CC1.Cl [TCMDC-142257] | – | Assay tox ratio Pf FGAA [2]: 14.77
69 | O=c1c(NCCCN(Cc2ccc(F)cc2)c2ccccn2)c(NCc2cccnc2)c1=O [TCMDC-142311] | – | Assay tox ratio Pf FGAA [2]: 278.57
